Compound potency records, mixed from different reports. Data source: NIAID ChemDB in PubChem.

Shared fields: growth or infection tests; agent: Mycobacterium bovis BCG

MIC50, MIC90 and the like: level of inhibition, or share of isolates inhibited. An empty or dashed field is not shown. Neighbouring rows are from separate reports.

SMILES,read by,strain,measure,setting,value
O=C(O)Cc1ccc2[nH]c3ccccc3c2c1,resazurin / visual reading / absorbance,,MIC99,,500 µg/mL
CCCCn1cc(/C=N/Nc2nncs2)c2ccccc21,broth dilution,1173P2,MIC100,48 h,3.91 µg/mL
CC1COc2c(N3CCN(C)CC3)c(F)cc3c(=O)c(C(=O)O)cn1c23,,Pasteur,MIC,,1.56 µM
Cn1cc(/C=N/NC(=S)NN)c2ccccc21,broth dilution,1173P2,MIC100,48 h,>500 µg/mL
O=C(O)C#Cc1ccccc1,resazurin,1173P2,MIC,48 h,125 µg/mL
CC(C(=O)O)c1ccc2c(c1)[nH]c1ccc(Cl)cc12,resazurin / visual reading / absorbance,,MIC99,,125 µg/mL
CN(C)[C@@H]1C(=O)C(C(N)=O)=C(O)[C@@]2(O)C(=O)C3=C(O)c4c(O)ccc(Cl)c4[C@@H](O)[C@H]3C[C@@H]12,,Pasteur,MIC,,3.125 µM
NNC(=S)N/N=C/c1cn(Cc2ccccc2Cl)c2ccccc12,broth dilution,1173P2,MIC100,48 h,>500 µg/mL
C#CCOC(C)=O,resazurin,1173P2,MIC,24 h,125 µg/mL
COC(=O)Cc1cccc2[nH]c3ccc(Cl)cc3c12,resazurin / visual reading / absorbance,,MIC99,,>500 µg/mL
Nc1nc(Cl)nc2c1ncn2[C@@H]1O[C@H](CO)[C@@H](O)[C@H]1O,,Pasteur,MIC,,12.5 µM
COC(=O)Cc1ccc2[nH]c3cc(Cl)ccc3c2c1,resazurin / visual reading / absorbance,,MIC99,,31.3 µg/mL
C#CC(CCCCC)OC(=O)CCCCCC,resazurin,1173P2,MIC,48 h,62.5 µg/mL
COC(=O)Cc1ccc2[nH]c3ccccc3c2c1,resazurin / visual reading / absorbance,,MIC99,,500 µg/mL
C#CC(C)OC(C)=O,resazurin,1173P2,MIC,24 h,125 µg/mL
O=C1c2cccnc2-c2nccc3c2c1nc1cc(Br)ccc13,,Pasteur,MIC,,0.781 µM
CC#CCCC,resazurin,1173P2,MIC,48 h,31.25 µg/mL
COC(=O)c1c(C)ccc2c(O)c3c(cc12)C(=O)c1c2c(cc(O)c1C3=O)C1(C)OC(C)(O2)C(O)C(N(C)C)C1O,,Pasteur,MIC,,25 µM
O=C(OC(=O)c1ccccc1)c1ccccc1,resazurin,1173P2,MIC,24 h,125 µg/mL
Cc1c2cc[n+](CCN3CCCCC3)cc2c(C)c2c1[nH]c1ccc(O)cc12,,Pasteur,MIC,,6.25 µM
NNC(=S)N/N=C/c1cn(Cc2ccccc2F)c2ccccc12,broth dilution,1173P2,MIC100,48 h,>500 µg/mL
C#CC(C)(O)CC,resazurin,1173P2,MIC,48 h,125 µg/mL

2 of the rows above, restated:

SMILES | read by | strain | measure | setting | value
COC(=O)Cc1ccc2[nH]c3ccccc3c2c1 | resazurin / visual reading / absorbance |  | MIC99 |  | 500 µg/mL
CC1COc2c(N3CCN(C)CC3)c(F)cc3c(=O)c(C(=O)O)cn1c23 |  | Pasteur | MIC |  | 1.56 µM